# DMS reactivity of the HIV-1 5' RNA in monomer and dimer

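Mutant RNA libraries with 1G, 2G or 3G starts, with or without cap, were folded at 37 °C for 30 min. High salt was 300 mM KCl and 5 mM MgCl2, low salt 40 mM KCl and 0.1 mM MgCl2; monomer and dimer were parted on a native gel. Each band was probed in the gel with DMS (170 mM, 15 min, 37 °C), with ethanol as control, and sequenced.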

The 5' region of HIV-1 NL4-3 RNA (positions 1-437):
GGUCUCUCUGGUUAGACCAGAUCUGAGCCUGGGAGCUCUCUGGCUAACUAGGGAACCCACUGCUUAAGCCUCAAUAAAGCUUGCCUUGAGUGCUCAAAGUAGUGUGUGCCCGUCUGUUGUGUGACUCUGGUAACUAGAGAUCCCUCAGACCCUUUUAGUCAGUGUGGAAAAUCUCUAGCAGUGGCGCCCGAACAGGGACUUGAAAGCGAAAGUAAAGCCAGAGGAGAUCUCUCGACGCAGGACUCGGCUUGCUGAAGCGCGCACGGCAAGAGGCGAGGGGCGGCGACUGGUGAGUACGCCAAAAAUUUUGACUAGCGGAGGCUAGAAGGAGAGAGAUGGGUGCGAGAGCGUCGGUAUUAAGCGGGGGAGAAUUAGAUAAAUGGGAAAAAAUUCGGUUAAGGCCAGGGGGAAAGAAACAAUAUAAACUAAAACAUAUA

Scale: normalised reactivity, A and C only; low values point to paired or protected bases, higher values to unpaired ones.
One numbering serves 1G, 2G and 3G.
A position is written with its base.

A97 (domain PolyA) gave 2G uncapped low-salt dimer 0.31; 1G capped high-salt monomer 0.42; 2G uncapped high-salt dimer 0.29.
A98 (domain PolyA) gave 2G uncapped low-salt dimer 0.27; 1G capped high-salt monomer 0.37; 2G uncapped high-salt dimer 0.24.
A101 (domain PolyA) gave 2G uncapped low-salt dimer 0.15; 1G capped high-salt monomer 0.18; 2G uncapped high-salt dimer 0.13.
C109 (domain U5) gave 2G uncapped low-salt dimer 0.21; 1G capped high-salt monomer 0.21; 2G uncapped high-salt dimer 0.21.
C110 (domain U5) gave 2G uncapped low-salt dimer 0.15; 1G capped high-salt monomer 0.21; 2G uncapped high-salt dimer 0.17.
C111 (domain U5) gave 2G uncapped low-salt dimer 0.22; 1G capped high-salt monomer 0.33; 2G uncapped high-salt dimer 0.24.
C114 gave 2G uncapped low-salt dimer 0.26; 1G capped high-salt monomer 0.26; 2G uncapped high-salt dimer 0.25.
A124 gave 2G uncapped low-salt dimer 0.95; 1G capped high-salt monomer 1.01; 2G uncapped high-salt dimer 0.86.
C125 (domain PAS) gave 2G uncapped low-salt dimer 0.08; 1G capped high-salt monomer 0.10; 2G uncapped high-salt dimer 0.09.
C127 (domain PAS) gave 2G uncapped low-salt dimer 0.04; 1G capped high-salt monomer 0.04; 2G uncapped high-salt dimer 0.03.
A132 (domain PBS) gave 2G uncapped low-salt dimer 0.51; 1G capped high-salt monomer 0.54; 2G uncapped high-salt dimer 0.57.
A133 (domain PBS) gave 2G uncapped low-salt dimer 1.43; 1G capped high-salt monomer 1.52; 2G uncapped high-salt dimer 1.45.
C134 (domain PBS) gave 2G uncapped low-salt dimer 0.16; 1G capped high-salt monomer 0.16; 2G uncapped high-salt dimer 0.13.
A136 (domain PBS) gave 2G uncapped low-salt dimer 0.10; 1G capped high-salt monomer 0.11; 2G uncapped high-salt dimer 0.09.
A138 (domain PBS) gave 2G uncapped low-salt dimer 0.10; 1G capped high-salt monomer 0.13; 2G uncapped high-salt dimer 0.10.
A140 (domain PBS) gave 2G uncapped low-salt dimer 0.33; 1G capped high-salt monomer 0.42; 2G uncapped high-salt dimer 0.30.
C142 (domain PBS) gave 2G uncapped low-salt dimer 0.07; 1G capped high-salt monomer 0.08; 2G uncapped high-salt dimer 0.06.
C143 (domain PBS) gave 2G uncapped low-salt dimer 0.04; 1G capped high-salt monomer 0.04; 2G uncapped high-salt dimer 0.03.
C144 (domain PBS) gave 2G uncapped low-salt dimer 0.04; 1G capped high-salt monomer 0.04; 2G uncapped high-salt dimer 0.03.
C146 (domain PBS) gave 2G uncapped low-salt dimer 0.12; 1G capped high-salt monomer 0.13; 2G uncapped high-salt dimer 0.09.
A147 (domain PBS) gave 2G uncapped low-salt dimer 0.46; 1G capped high-salt monomer 0.45; 2G uncapped high-salt dimer 0.44.

Source: Ye et al. 2022 (doi:10.1038/s41594-022-00746-2), supplementary data.